Patent US10611795B2, “Methods for viral inactivation using eco-friendly detergents” (priority 2013, dated 2020)

Columns and labels:
MAb3 [1] = experiment: Size exclusion chromatography (SEC) of product after detergent treatment; settings: three hours ambient
MAb3 [2] = experiment: iCIEF charge heterogeneity after detergent treatment; settings: three hours ambient
DNA = DNA quantitation (TaqMan PCR assay); settings: three hours ambient
[3] = Roche's inherent biodegradability test (OECD 302); cited from earlier work
MAb1 [4] = experiment: Size exclusion chromatography (SEC) of product after detergent treatment; settings: MAb1 HCCF, detergent mixing study
MAb1 [5] = experiment: iCIEF charge heterogeneity after detergent treatment; settings: MAb1 HCCF, detergent mixing study

Molecule | SEC-HMWS (%) (MAb3 [1]; MAb3 HCCF + Detergent) | SEC-LMWS (%) (MAb3 [1]; MAb3 HCCF + Detergent) | SEC-main (%) (MAb3 [1]; MAb3 HCCF + Detergent) | SEC-HMWS (%) (MAb3 [1]; MAb3 N. ProA pool + detergent) | SEC-LMWS (%) (MAb3 [1]; MAb3 N. ProA pool + detergent) | SEC-main (%) (MAb3 [1]; MAb3 N. ProA pool + detergent) | iCIEF-acidic (%) (MAb3 [2]; MAb3 HCCF + Detergent) | iCIEF-basic (%) (MAb3 [2]; MAb3 HCCF + Detergent) | iCIEF-main (%) (MAb3 [2]; MAb3 HCCF + Detergent) | iCIEF-acidic (%) (MAb3 [2]; MAb3 N. ProA pool + detergent) | iCIEF-basic (%) (MAb3 [2]; MAb3 N. ProA pool + detergent) | iCIEF-main (%) (MAb3 [2]; MAb3 N. ProA pool + detergent) | DNA (ppm), HCCF + Detergent (DNA; MAb3 HCCF) | DNA (ppm), Adj. ProA pool + Detergent (DNA; MAb3 adjusted protein A pool) | TOC removal by day 28 [3] | SEC % HMWS (MAb1 [4]) | SEC % LMWS (MAb1 [4]) | iCIEF % Acidic (MAb1 [5]) | iCIEF % Basic (MAb1 [5]) | iCIEF % Main (MAb1 [5])
CCCCCCCC(=O)O [caprylate, caprylic acid] | 0.8% | 0.1% | 99.1% | 1.8% | 0.1% | 98.1% | 57.5% | 2.71% | 39.8% | 52.0% | 3.38% | 44.6% | <LOQ | 0.002 ppm |  |  |  |  |  | 
Polysorbate 20 |  |  |  |  |  |  |  |  |  |  |  |  |  |  | test (OECD 302): 40% |  |  |  |  | 
Polysorbate 80 |  |  |  |  |  |  |  |  |  |  |  |  |  |  | test (OECD 302): 50% | 7.5% | 0.2% | 33.7% | 2.2% | 64.1%
